PubChem BioAssay AID1259414 – Drosophila RNAi Screening Center – 2018

Purpose: 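Host factors increasing or decreasing Wolbachia levels in cultured fly cells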 (primary screen)
Cells: Drosophila JW18 cells infected with Wolbachia
Reagent: long dsRNA against Drosophila genes, 0.25 µg dsRNA per well of a 384-well plate
Duration: 5 days
Conditions: cells persistently infected with Wolbachia before knock-down; no added drug
Detection: 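Automated imaging of bacterial rRNA staining divided by host cell count, reported as plate-normalised robust z-score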
Direction: Wolbachia per cell robust z: higher = more Wolbachia per host cell than the plate typical
Hit rule: 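Hit when robust z is 1.5 or more, or -1.5 or less, in at least two of three replicates; excludes dsRNAs with several or no targets, genes not expressed in JW18 and well A1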
The deposit covers about 24,000 reagents; below is an unselected part of those that have a named target and a result. Of all reagents, about 1,210 (5%) got an active call. 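Inactive calls also include excluded dsRNAs with several or no targets, genes unexpressed in JW18, and well A1, regardless of score.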 A plus sign joins genes that one reagent is predicted to hit. No sequences are given here.

With Cyp311a1 [DRSC20239], what was measured?
Wolbachia per cell robust z, rep 1: 0.336; Wolbachia per cell robust z, rep 2: 0.764; Wolbachia per cell robust z, rep 3: 0.706; call: inactive

What did the screen give for Cyp311a1 [DRSC27062]?
Wolbachia per cell robust z, rep 1: -2.3; Wolbachia per cell robust z, rep 2: -2.52; Wolbachia per cell robust z, rep 3: 0.337; call: inactive

For T3dh [DRSC28231], how do the results read?
Wolbachia per cell robust z, rep 1: 1.52; Wolbachia per cell robust z, rep 2: 1.05; Wolbachia per cell robust z, rep 3: 0.407; call: inactive

With Vha16-1 [DRSC05020], how do the results read?
Wolbachia per cell robust z, rep 1: 0.555; Wolbachia per cell robust z, rep 2: 1.95; Wolbachia per cell robust z, rep 3: -4.99; call: inactive

Which result is listed for CG13365 [DRSC17899]?
Wolbachia per cell robust z, rep 1: 0.366; Wolbachia per cell robust z, rep 2: 0.768; Wolbachia per cell robust z, rep 3: 2.53; call: inactive

With CG13365 [DRSC27043], how do the results read?
Wolbachia per cell robust z, rep 1: -0.0837; Wolbachia per cell robust z, rep 2: -0.0947; Wolbachia per cell robust z, rep 3: 1.64; call: inactive

With key [DRSC04285], what was measured?
Wolbachia per cell robust z, rep 1: -0.176; Wolbachia per cell robust z, rep 2: -1.78; Wolbachia per cell robust z, rep 3: -5.03; call: active

What did the screen give for Miox [DRSC10747]?
Wolbachia per cell robust z, rep 1: -1.64; Wolbachia per cell robust z, rep 2: 0.709; Wolbachia per cell robust z, rep 3: 0.395; call: inactive

What did the screen give for Miox [DRSC24306]?
Wolbachia per cell robust z, rep 1: -1.02; Wolbachia per cell robust z, rep 2: 0.81; Wolbachia per cell robust z, rep 3: 0.0212; call: inactive

With His2B:CG33878 + His2B:CG33908 + His2B:CG33886 + 21 more [DRSC03757], what was measured?
Wolbachia per cell robust z, rep 1: -0.209; Wolbachia per cell robust z, rep 2: -0.0234; Wolbachia per cell robust z, rep 3: -5.49; call: inactive

How did the screen score CG14342 [DRSC00372]?
Wolbachia per cell robust z, rep 1: -2; Wolbachia per cell robust z, rep 2: 0.849; Wolbachia per cell robust z, rep 3: -0.528; call: inactive

With CG14342 [DRSC25128], how do the results read?
Wolbachia per cell robust z, rep 1: 0.929; Wolbachia per cell robust z, rep 2: 1.38; Wolbachia per cell robust z, rep 3: 0.602; call: inactive

What did the screen give for mEFG1 [DRSC02758]?
Wolbachia per cell robust z, rep 1: 0.314; Wolbachia per cell robust z, rep 2: 0.472; Wolbachia per cell robust z, rep 3: 2.17; call: inactive

What is on record for CG12470 [DRSC18620]?
Wolbachia per cell robust z, rep 1: 0.371; Wolbachia per cell robust z, rep 2: 0.668; Wolbachia per cell robust z, rep 3: -1.48; call: inactive

With MED7 [DRSC16059], how do the results read?
Wolbachia per cell robust z, rep 1: 0.768; Wolbachia per cell robust z, rep 2: 0.774; Wolbachia per cell robust z, rep 3: 1.36; call: inactive

What did the screen give for MED7 [DRSC29232]?
Wolbachia per cell robust z, rep 1: 2.15; Wolbachia per cell robust z, rep 2: 0.738; Wolbachia per cell robust z, rep 3: 1.24; call: inactive

What is on record for Tbc1d15-17 [DRSC00313]?
Wolbachia per cell robust z, rep 1: 0.336; Wolbachia per cell robust z, rep 2: 0.445; Wolbachia per cell robust z, rep 3: 1.38; call: inactive

How did the screen score Tbc1d15-17 [DRSC28813]?
Wolbachia per cell robust z, rep 1: 0.165; Wolbachia per cell robust z, rep 2: 0.638; Wolbachia per cell robust z, rep 3: 1.59; call: inactive

For Rh4 [DRSC11268], how do the results read?
Wolbachia per cell robust z, rep 1: 1.02; Wolbachia per cell robust z, rep 2: 1.8; Wolbachia per cell robust z, rep 3: 0.0503; call: inactive

What is on record for Rh4 [DRSC27381]?
Wolbachia per cell robust z, rep 1: -1.38; Wolbachia per cell robust z, rep 2: -0.125; Wolbachia per cell robust z, rep 3: -0.78; call: inactive

How did the screen score CG30161 [DRSC22141]?
Wolbachia per cell robust z, rep 1: -1.28; Wolbachia per cell robust z, rep 2: -0.0541; Wolbachia per cell robust z, rep 3: -0.153; call: inactive

What is on record for RhoL [DRSC16824]?
Wolbachia per cell robust z, rep 1: 2.71; Wolbachia per cell robust z, rep 2: -0.0629; Wolbachia per cell robust z, rep 3: 1.98; call: inactive

With RhoL [DRSC23664], what does the deposit list?
Wolbachia per cell robust z, rep 1: -0.219; Wolbachia per cell robust z, rep 2: -1.73; Wolbachia per cell robust z, rep 3: -2.11; call: inactive

How did the screen score RhoL [DRSC38970]?
Wolbachia per cell robust z, rep 1: 0.00277; Wolbachia per cell robust z, rep 2: -1.81; Wolbachia per cell robust z, rep 3: -1.1; call: inactive
